The subject of assay [1] is nAChRs at X. laevis LP muscle NMJs. Kind of assay: Fluorescence imaging of TMR α-BgTX binding at X. laevis LP NMJs. Particulars: 10 μM αM-MIIIJ, 10-min pretreatment; 1 μg/mL TMR α-BgTX, 30 min.
For assay [2], the system named is nAChRs at NMJs of zebrafish fast fibers. Kind of assay: Fluorescence imaging of Alexa488 α-BgTX binding, zebrafish fast fibers. Particulars: 10 μM αM-MIIIJ, 10-min pre-treatment, 1 μg/mL Alexa488 α-BgTX.
Assay [3] concerns nAChRs at NMJs of zebrafish slow fibers. Kind of assay: Fluorescence imaging of Alexa488 α-BgTX binding, zebrafish slow fibers. Particulars: 10 μM αM-MIIIJ, 10-min pre-treatment, 1 μg/mL Alexa488 α-BgTX.
Assay [4] relates to zebrafish αβε nAChR. Kind of assay: Block of ACh-gated currents (IACh) in voltage-clamped X. laevis oocytes, zαβε. Conditions: n = 3.
The target in assay [5] is rat α3β4 nAChR (Rattus norvegicus, UniProt P04757+P12392). Kind of assay: Block of ACh-gated currents (IACh) in voltage-clamped X. laevis oocytes, rα3β4. Conditions: 10 μM, highest concentration tested.
Assay [6] relates to zebrafish αβδγ nAChR. The experiment in a line: Protection against slowly-reversible block by α-EI or α-BgTX, zαβδγ in oocytes. Conditions: 10 μM αM-MIIIJ; α-BgTX 10 μg/mL.
The subject of assay [7] is zebrafish αβδε nAChR. The experiment in a line: Protection against slowly-reversible block by α-EI or α-BgTX, zαβδε in oocytes. Particulars: 10 μM αM-MIIIJ; α-BgTX 10 μg/mL.

By UniProt entry, the sequences of proteins in these tests, tags left out. Residues count along the entry.
UniProt P04757, 26-499 limits assumed: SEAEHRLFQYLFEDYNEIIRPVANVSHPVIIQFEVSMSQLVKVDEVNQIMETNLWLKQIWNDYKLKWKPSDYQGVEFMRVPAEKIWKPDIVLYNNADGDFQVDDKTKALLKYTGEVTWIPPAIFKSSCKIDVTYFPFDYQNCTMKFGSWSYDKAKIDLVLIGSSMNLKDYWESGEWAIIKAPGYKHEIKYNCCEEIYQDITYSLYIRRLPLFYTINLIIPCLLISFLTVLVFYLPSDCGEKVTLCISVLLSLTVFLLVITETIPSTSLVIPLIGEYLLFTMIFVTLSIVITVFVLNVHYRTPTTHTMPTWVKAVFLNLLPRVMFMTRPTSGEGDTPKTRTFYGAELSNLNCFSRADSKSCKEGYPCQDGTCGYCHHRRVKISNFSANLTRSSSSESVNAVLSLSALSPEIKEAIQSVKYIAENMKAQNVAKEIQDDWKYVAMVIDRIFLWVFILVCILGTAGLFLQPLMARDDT
UniProt P12392, 21-495 limits assumed: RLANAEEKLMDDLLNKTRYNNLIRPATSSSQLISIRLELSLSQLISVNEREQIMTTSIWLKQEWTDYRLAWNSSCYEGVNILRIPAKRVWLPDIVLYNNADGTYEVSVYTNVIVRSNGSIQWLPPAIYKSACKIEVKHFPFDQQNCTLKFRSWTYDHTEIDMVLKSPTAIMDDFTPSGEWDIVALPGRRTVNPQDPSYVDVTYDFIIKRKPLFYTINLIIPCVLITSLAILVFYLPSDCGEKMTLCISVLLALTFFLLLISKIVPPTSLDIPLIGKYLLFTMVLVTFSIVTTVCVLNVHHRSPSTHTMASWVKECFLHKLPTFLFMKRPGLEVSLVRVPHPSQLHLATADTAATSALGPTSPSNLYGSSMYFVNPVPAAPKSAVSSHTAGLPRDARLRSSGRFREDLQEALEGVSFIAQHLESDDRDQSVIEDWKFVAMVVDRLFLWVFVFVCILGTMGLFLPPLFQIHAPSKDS

Consider `CC[C@H](C)[C@@H]1NC(=O)[C@H](CC(C)C)NC(=O)[C@H](CCCNC(=N)N)NC(=O)[C@H](CC(=O)O)NC(=O)[C@H](CCCNC(=N)N)NC(=O)[C@H](Cc2ccccc2)NC(=O)[C@H](Cc2ccc(O)cc2)NC(=O)[C@H](CC(C)C)NC(=O)[C@@H]2CCCN2C(=O)[C@@H]2CSSC[C@@H](C(=O)O)NC(=O)[C@@H]3CSSC[C@H](NC(=O)[C@H](CCCCN)NC(=O)[C@@H]4CCC(=O)N4)C(=O)N[C@@H](CSSC[C@H](NC1=O)C(=O)N1CCC[C@H]1C(=O)N3)C(=O)N[C@@H](CO)C(=O)NCC(=O)NCC(=O)N[C@@H](CO)C(=O)N2` [αM-MIIIJ], for which the “inhibition of TMR α-BgTX binding” value in assay [1] is recorded as “very little binding of TMR α-BgTX”. In addition, the “inhibition of Alexa488 α-BgTX binding” value in assay [2] and in assay [3] was “inhibited α-BgTX binding to both types of muscle fibers” throughout. Besides, the IC50 in assay [4] (5-min toxin exposure, static bath, ACh 100 μM 1-s pulse, 1/min, −70 mV, 95% C.I. in parentheses, data steeper than Langmuir isotherm fit) was determined as 34 nM. This compound had a koff in assay [4] (washout, single-exponential fit, 95% C.I. of 0.7–0.9) of 0.0133 s⁻¹. Besides, the “block of IACh” value in assay [5] was “failed to block IACh”. Moreover, the “protection against α-BgTX block” value is reported as “only partial protection” in assay [6] and “largely protected” in assay [7].

A word on the IC50: it is the midpoint of a concentration-inhibition curve. The term koff denotes the rate constant with which the complex falls apart. Low readings indicate slow dissociation, high ones fast dissociation.

The values above are taken from PMC7150935 (Toxins, 2020).
